Pooled drug test results. Numbers come from NIAID ChemDB, via PubChem.

Common to all: cytotoxicity tests; cells: VERO; endpoint: CC50

CCn: concentration that lowers growth or viability of the cells by n%.

smiles	read by	result
CC(C)(C)C(=O)N/N=C/c1ccc([N+](=O)[O-])s1	-	11.2 µg/mL
CC(=O)CCC(=O)O[C@H]1C[C@H](n2cc(/C=C/Br)c(=O)[nH]c2=O)O[C@@H]1COP1(=O)OCc2cccc(C)c2O1	-	72.7 µg/mL
NNC(=O)CCC(NC(=O)OCc1ccccc1)C(=O)NN	-	7.01 µg/mL
NC(=O)c1cn(-c2ccccc2F)c2cc(-c3ccncc3)ccc2c1=O	-	>1.6 µg/mL
O=C1c2cc3ccoc3cc2O[C@@H]2COc3cc4c(cc3[C@H]12)OCO4	-	>50 µg/mL
CC[C@H](C)[C@H](N)C(=O)O[C@H]1C[C@H](n2cc(/C=C/Br)c(=O)[nH]c2=O)O[C@@H]1COP1(=O)OCc2cccc(C)c2O1	-	60.6 µg/mL
CC[C@H]1OC(=O)[C@H](C)[C@@H](O[C@H]2C[C@@](C)(OC)[C@@H](O)[C@H](C)O2)[C@H](C)[C@@H](O[C@@H]2O[C@H](C)C[C@H](N(C)C)[C@H]2O)[C@](C)(OC)C[C@@H](C)C(=O)[C@H](C)[C@@H](O)[C@]1(C)O	XTT	>300 µg/mL
Cc1ccc(/C=N/NC(=O)c2ccncc2)s1	-	>62.5 µg/mL
CC(=O)Oc1c(OC(C)=O)c(C#N)c2c(OC(C)=O)c(-c3c(C)cc4c(C(C)C)c(OC(C)=O)c(OC(C)=O)c(C#N)c4c3OC(C)=O)c(C)cc2c1C(C)C	-	2.7 µM
O=C(Nn1c(Nc2ccccc2)nc2c(cnn2-c2ccccc2)c1=O)c1cccs1	-	220 µg/mL
COc1c(OC)c2c3c(c(-c4c(C)cc5c(C(C)C)c(OC)c(OC)c6c5c4OC6=O)c(C)cc3c1C(C)C)OC2=O	-	>100 µM
Nc1nc(=O)n([C@H]2C=C[C@@H](CO)C2)cc1F	-	>100 µM
O=c1c2cnn(-c3ccccc3)c2nc2n1N=C(c1ccc(Br)cc1)CN2c1ccccc1	-	100 µg/mL
CN1C[C@H](c2ccc(N3CCOCC3)cc2)[C@]2(CC3C=CC=CC3C2=O)[C@]12C(=O)c1cccc3cccc2c13	MTT	>62.5 µg/mL
Cc1cc(-c2ccc3c(=O)c(C(N)=O)cn(-c4ccc(F)cc4)c3c2)on1	-	>100 µg/mL
Nc1ncnc2c1ccn2[C@@H]1O[C@H](CO)[C@@H](O)[C@H]1O	-	0.0063 µg/mL
Cn1c(O)c(C2=c3ccccc3=NC2=O)c2ccccc21	-	>100 µM
O=c1c(O)c(-c2ccc(O)cc2)oc2cc(O)cc(O)c12	-	20 µg/mL
N#Cc1cccc(C2=N[C@H](C(=O)OCc3ccccc3)CO2)c1	MTS / absorbance	121 µM
O=c1[nH]c(=O)n([C@H]2C[C@H](O)[C@@H](COP3(=O)OCc4ccccc4O3)O2)cc1/C=C/Br	-	>128 µg/mL
O=c1c2cnn(-c3ccccc3)c2nc2n(-c3ccccc3)c(=S)[nH]n12	-	220 µg/mL
O=[N+]([O-])c1ccc(NN=C2/C(=C/c3ccco3)CNC/C2=C\c2ccco2)c([N+](=O)[O-])c1	MTT	394 µg/mL
Nc1nc(=O)n([C@H]2C=C[C@@H](CO)O2)cc1I	-	>100 µM
NNC(=O)N=C1/C(=C/c2ccco2)CNC/C1=C\c1ccco1	MTT	406 µg/mL
C[C@@H]1C[C@@H]([C@H](O)CC2CC(=O)NC(=O)C2)C(=O)[C@@H](C)C1	-	1.2 µM
O=C1c2ccccc2C(=O)c2sc(Nc3cc(Cl)ccc3Cl)nc21	-	4 µg/mL
Cc1cccc2c1OP(=O)(OC[C@H]1O[C@@H](n3cc(/C=C/Br)c(=O)[nH]c3=O)C[C@@H]1OC(=O)[C@H]1CCCN1)OC2	-	90.5 µg/mL
ON=C1/C(=C/c2ccco2)CNC/C1=C\c1ccco1	MTT	82 µg/mL
N#CCc1nc2c(s1)C(=O)c1ccccc1C2=O	-	6.3 µg/mL
CCCOC(=O)C(N)CCSC[C@H]1O[C@@H](n2ccc3c(N)ncnc32)[C@H](O)[C@@H]1O	-	200 µg/mL
ONC(=S)NN=C1/C(=C/c2ccco2)CNC/C1=C\c1ccco1	MTT	334 µg/mL
CNc1nc2sc3c(c2c(=O)n1N)CCCC3	-	250 µg/mL
O=c1[nH]c(=O)n([C@H]2C=C[C@@H](CO)O2)cc1F	-	7.9 µM
Nc1nc(=O)n([C@@H]2C=C(F)[C@H](CO)S2)cc1F	MTT	88.1 µM
COC(=O)C(CO)N=Cc1c(O)c(O)c(C(C)C)c2cc(C)c(-c3c(C)cc4c(C(C)C)c(O)c(O)c(C=NC(CO)C(=O)OC)c4c3O)c(O)c12	-	1.2 µM
NCC[C@H](O)C(=O)N[C@@H]1C[C@H](N)[C@@H](O[C@H]2O[C@H](CN)[C@@H](O)[C@H](O)[C@H]2O)[C@H](O)[C@H]1O[C@H]1O[C@H](CO)[C@@H](O)[C@H](N)[C@H]1O	MTT	>62.5 µg/mL
CCCCc1c(C#N)c(=O)n2c(N)c(C(=O)OCC)cnc2c1SC	-	0.05 µg/mL
CON=C1/C(=C/c2ccco2)CNC/C1=C\c1ccco1	MTT	332 µg/mL
Nc1nc2c(ncn2[C@@H]2C=C(F)[C@H](CO)S2)c(=O)[nH]1	MTT	>100 µM
O=c1c(O)c(-c2ccccc2)oc2cc(O)cc(O)c12	-	15 µg/mL
COc1ccc2c3c([nH]c2c1)C(C)=NCC3	MTT	17.64 µg/mL
S=C(S)N1CCCCCC1	-	7.7 µg/mL
O=c1c2cnn(-c3ccccc3)c2nc2n1N=C(c1ccc(F)cc1)CN2c1ccccc1	-	220 µg/mL
CC[n+]1c2ccc(C)cc2nc2c3ccccc3c(N)cc21.[Cl-]	-	1.2 µg/mL
N=C(N)c1cn([C@H]2C[C@H](O)[C@@H](CO)O2)c2ncnc(N)c12	-	11 µM
CCCC(=O)OC[C@@H]1C=C[C@H](n2cc(F)c(N)nc2=O)O1	-	>100 µM
CN(C)c1ccc(/C=N/NC(=O)c2ccncc2)cc1	-	>10 µg/mL
O=C1c2ccc(N3CCCCC3)cc2-n2c1nc1ccncc1c2=O	-	11 µg/mL
CC(=O)NC1=CC(=O)C=CC1=Nc1ccc(N(C)C)cc1	-	3.8 µg/mL
COc1cc2c(cc1-c1coc3cc4occc4cc3c1=O)OCO2	-	>50 µg/mL
Nc1ncnc2c1ncn2[C@@H]1C=C(F)[C@H](CO)S1	MTT	>100 µM
CCCOC(=O)C(CCSC[C@H]1O[C@@H](n2ccc3c(N)ncnc32)[C@H](O)[C@@H]1O)NC(=O)C(F)(F)F	-	>200 µg/mL
CCc1cn([C@H]2C[C@H](N)[C@@H](CO)O2)c(=O)[nH]c1=O	-	>2000 µM
COc1cc2c(cc1-c1cc3cc4ccoc4cc3oc1=O)OCO2	-	>50 µg/mL
Cc1cc(C)c2c(c1)COP(=O)(OC[C@H]1O[C@@H](n3cc(/C=C/Br)c(=O)[nH]c3=O)C[C@@H]1O)O2	-	96.2 µg/mL
C=C[C@]1(C)C=C2c3c[nH]c4cccc(c34)C(C)(C)[C@H]2C[C@H]1O	-	>100 µM
NC(=O)c1cn(-c2ccc(C(F)(F)F)cc2)c2cc(-c3ccncc3)ccc2c1=O	-	>100 µg/mL
CCCCCCCC(=O)N1[C@H]2[C@@H]1CN1C3=C(C(=O)C(N)=C(C)C3=O)[C@@H](COC(N)=O)[C@@]21OC	-	0.579 µg/mL
Nc1nccc2c1ncn2[C@@H]1O[C@H](CO)[C@@H](O)[C@H]1O	-	400 µg/mL
CCN(CC)c1ccc2nc3ccc(N(CC)CC)cc3[n+](-c3ccccc3)c2c1.[Cl-]	-	0.55 µg/mL
NC(=O)c1cn([C@@H]2O[C@H](CO)[C@@H](O)[C@@H]2O)c2ncnc(N)c12	-	40 µM
CCOC(=O)c1cn(C)cc1-c1ccc(OC)cc1	-	4 µg/mL
CC(C)C(=O)O[C@H]1C[C@H](n2cc(/C=C/Br)c(=O)[nH]c2=O)O[C@@H]1COP1(=O)OCc2ccccc2O1	-	38.6 µg/mL
CCCOC(=O)C(CCSC[C@H]1O[C@@H](n2ccc3c(N)ncnc32)[C@H](O)[C@@H]1O)NC(=O)COC	-	70 µg/mL
N/C(=N/O)c1cn([C@H]2C[C@H](O)[C@@H](CO)O2)c2ncnc(N)c12	-	70 µM
Fc1cc(Cl)ccc1N=C1/C(=C/c2ccco2)CNC/C1=C\c1ccco1	MTT	446 µg/mL
NC(=S)c1cn([C@H]2C[C@H](O)[C@@H](CO)O2)c2ncnc(N)c12	-	4 µM
O=c1c2cnn(-c3ccccc3)c2nc(Nc2ccccc2)n1/N=C/c1ccc(Cl)cc1	-	220 µg/mL
COc1ccc(N=C2/C(=C/c3ccco3)CNC/C2=C\c2ccco2)cc1	MTT	204 µg/mL
CCN(CC)C(=S)S	-	12.4 µg/mL
O=c1c2cnn(-c3ccccc3)c2nc(Nc2ccccc2)n1/N=C/c1ccc(F)cc1	-	150 µg/mL
O=c1[nH]cnc2c1ncn2[C@H]1C=C(F)[C@@H](CO)S1	MTT	>100 µM
Cc1[nH]nc(-c2cccnc2)c1N=NN1CCC(C(N)=O)CC1	-	1.5 µg/mL
NC(=O)c1cn(C2CC2)c2cc(-c3ccncc3)ccc2c1=O	-	>25 µg/mL
CC(=O)Nc1n[n+]([O-])c2cc(C)ccc2[n+]1[O-]	-	0.34 µg/mL
Nc1ncnc2c1ncn2C[C@@H](CO)OCP(=O)(O)O	-	10 µg/mL
CCC1C[N+]2=C(c3cc(OC)c(OC)cc3CC2)c2c1cc1n2CCc2cc(OC)c(OC)cc2-1	-	21.8 µg/mL
CCc1cn([C@H]2C[C@H](O)[C@@H](COP(=O)(O)C(N)=O)S2)c(=O)[nH]c1=O	-	>1300 µM
CCOC(=O)c1cn(Cc2ccc(F)cc2)cc1-c1ccccc1	-	4 µg/mL
CCN(CC)CCNc1cc2c(c3c(=O)c4ccccc4sc13)CCCC2	-	4.2 µg/mL
CCOC(=O)c1cn(Cc2ccccc2)cc1-c1ccc(OC)cc1	-	8 µg/mL
CN1C[C@H](c2cccc3c2OCO3)[C@]2(CC3C=CC=CC3C2=O)[C@]12C(=O)c1cccc3cccc2c13	MTT	>62.5 µg/mL
O=C1CCCN2C(CC1)C[C@@]13CN4CCCC/C=C/CC[C@@](O)(C=C(c5nccc6c5[nH]c5c(O)cccc56)[C@H]1CC4)[C@@H]23	-	>4.76 µg/mL
Cc1nccc2c(C)c3c(cc12)c1ccccc1n3CCC1CO1	-	0.05 µg/mL
Clc1ccc(N=C2/C(=C/c3ccco3)CNC/C2=C\c2ccco2)c(Cl)c1	MTT	226 µg/mL
CC(=O)Oc1c(-c2c(C)cc3c(C(C)C)c(O)c(O)c(C#N)c3c2OC(C)=O)c(C)cc2c(C(C)C)c(O)c(O)c(C#N)c12	-	>100 µM
C(=C1/CNC/C(=C\c2ccco2)C1=NNc1ccccc1)/c1ccco1	MTT	144 µg/mL
C[C@H](N)C(=O)O[C@H]1C[C@H](n2cc(/C=C/Br)c(=O)[nH]c2=O)O[C@@H]1COP1(=O)OCc2ccccc2O1	-	>128 µg/mL
Nc1ccn(C[C@@H](CO)OCP(=O)(O)O)c(=O)n1	-	43 µg/mL
CO[C@H]1/C=C/O[C@@]2(C)Oc3c(C)c(O)c4c(c3C2=O)C(=O)C=C(NC(=O)/C(C)=C\C=C\[C@H](C)[C@H](OC=O)[C@@H](C)[C@@H](O)[C@@H](C)[C@H](OC(C)=O)[C@@H]1C)C4=O	-	4.02 µg/mL
NC(=O)c1c[nH]cc1-c1ccc(Cl)cc1Cl	-	0.125 µg/mL
O=c1[nH]cnc2c1ncn2[C@@H]1C=C(F)[C@H](CO)S1	MTT	>100 µM
Nc1nccc2c1ncn2[C@@H]1C[C@H](CO)[C@@H](O)[C@H]1O	-	11 µg/mL
CC(C)CCCC(C)C1CCC2C3CCC4CC(NC(=O)CNCCCSC(C)C)CCC4(C)C3CCC12C	-	>10 µg/mL
Nn1c(Nc2ccccc2)nc2sc3c(c2c1=O)CCC3	-	25 µg/mL

An empty or dashed field is not shown. Conditions beyond the fields shown may differ between rows.